This is an account of results in patent US20150086555A1 (THERACLONE SCIENCES, published 2015).

For test [1], the target named is T1, Hemagglutinin (HA) of influenza A virus A/Wisconsin/67/05 H3N2, on whole virions (Influenza A virus A/Wisconsin/67/2005 …).
T1 construct: whole, on cells
The test can be described thus: ELISA on coated inactivated whole virions; transfection supernatant, set 5. In general terms: An ELISA detects its analyte on a solid surface through an enzyme-linked reagent.

Test [2] has as its target hemagglutinin (HA) of influenza A/Solomon Islands/3/06 (H1N1) on whole virions (Influenza A virus A/Solomon …).
Test [3] concerns the target T2, hemagglutinin (HA) of influenza A/Wisconsin/67/05 (H3N2) on whole virions (Influenza A virus …).
T2 construct: whole, on cells
As to the kind of experiment: ELISA; BCC supernatant on coated inactivated whole virions.

The target of test [4] is Hemagglutinin (HA) of influenza A virus A/Japan/305/57 H2N2, on whole virions (Influenza A virus A/Japan/305/1957 …).
Test [5] addresses hemagglutinin on whole influenza A virions, A/Wisconsin/67/05 H3N2 (Influenza A virus …).

B1: TCN-556 (5089_K12) (antibody, V domains shown)
VH: QVQLVQSGAEVKKPGASVKVSCKASGYTFIGYDMHWVRQAPGQGLEWMGWINAKRGGTNYAQKFQGRVTMTRDTSISTAYMELNSLRSDDTAVYYCARGVGSRTTIFGVLNPEFDYWGQGTLVTVSS
VL: QSALTQPPSASGSPGQSVTISCTGSSSDVGGYDYVSWYQQHPGKAPKLLIYEVTKRPSGVPDRFSGSKSGNTASLTVSGLQAEDEADYYCSSYAGNYNHVFGPGTKVTVL
Take B1: the “ELISA virus binding (OD450)” value in test [1] was 0.34 OD450.

B2: TCN-556 (5089_K12) (antibody, V domains shown)
VH: B1 VH
VL: B1 VL
Turning to B2, the figures for the “ELISA virus binding (OD450)” value in test [2] and in test [3] were 2.7 OD450 and 0.06 OD450, respectively.

B3: TCN-538 (3206_O17) (antibody, V domains shown)
VH: QITLKESGPTLVKPTQTLTLTCVFSGFSLSITGVRVGWIRQPPGKALEWLALISWDDEKHYSPSLQSRLTITKDTSKNQVVLTMTNLDPVDTATYYCARSTDRGHVLRYFGWMLPGDAFDVWGQGTMVTVSS
VL: DIVMTQSPDFLPVSLGERATINCKSSQRVLYSSNNKNYLAWYQLKPGQPPKLIIYWASTRESGVPDRFSGSGSGTEFTLTISSLQAEDVAVYYCQQYYSRPYTFGQGTKLEIK
On to B3, for which the “ELISA virus binding (OD450)” value in test [4] amounted to 3.37 OD450; in test [1], 0.12 OD450.

B4: TCN-530 (5248_H10a) (antibody, V domains shown)
VH: QVQLVQSGAEVRKPGSSVKVSCKASGGPFMSYAIGWVRQAPGQGLEWMGGINPVFGRPHYAQKFQGRVTIATDDSTKTSYMELSSLTSEDTGMYYCASRYSRSSPGTFESWGQGTLVTVSS
VL: EIVMTQFPATLSVSPGERVTLSCRASQSVSNNLAWYQQKPGQPPRLLIYDASTRATGVPAKFSGTGSGTEFTLSISSLQSEDFAVYYCQQYHNWPPSYSFGLGTKLEIK
As for B4, the “ELISA: Virus Binding (OD450)” value in test [5] was found to be 0.13 OD450.

B5: TCN-558 (5248_H10b) (antibody, V domains shown)
VH: QVQLVQSGSEVKKPGTSVKVSCTASGSVFTNYGISWVRQAPGQGLEWMGGIIPLFGAAKYAQKFQGRVTITADESTKTVYMELSRLTSKDTAIYFCAKAPRVYEYYFDQWGQGTPVTVSS
VL: B4 VL
Take B5: the “ELISA: Virus Binding (OD450)” value in test [5] turned out to be 0.13 OD450.

B6: TCN-522 (3212_I12) (antibody, V domains shown)
VH: QVQLQQWGAGLLKPSETLSLTCTVSGGSLTDYSWNWIRQPPGKGLEWIGDTLHNGYTNYNPSLRGRVSISIDTSKNQVSLRLTSVTAADTALYYCARGSGGYGGFDYFGKLRTWDFWGQGTLVTVSS
VL: DIQLTQSPSSLSASVGDRVTITCRASQGIRNDLGWYQQKPGNAPKRLIFGASSLQSGVPSRFSGSGSGTEFTLTISSLQPEDFATYYCLQHNSYPYTFGQGTKLEIK
On to B6, for which the “ELISA: Virus Binding (OD450)” value in test [5] is 0.12 OD450.

B7: TCN-534 (5249_B02) (antibody, V domains shown)
VH: QVQLVQSGAEVKKPGSSVKVSCRESGGTFNGYTITWVRQAPGQGLEWMGGIIPMMGTVNYAQKLQGRVTITTDYFTKTAYMDLNNLRSEDTAMYYCVKIRYTGQQLLWGQGTLVTVSS
VL: DIQMTQSPSTLSASIGDRVTITCRASQSIASWLAWYQQKPGKAPKLLIYEAVNLESGVPSRFSGSGSGTDFTLTISSLQPDDFATYFCQHYGTISQTFGGGTKVEIK
B7: the “ELISA: Virus Binding (OD450)” value in test [5] was determined as 0.13 OD450.

B8: TCN-551 (5243_D01) (antibody, V domains shown)
VH: EVQLVQSGSEVKKPGESLKISCKGSGYSFSNYWIGWVRHMPGKGLEWMGIIYPGDSDTRYSPSFQGQVTMSADKSSSTVYLQWSSLKASDTAIYYCARRGGHSFGYGSGGDTHSEFDSWGQGTLVTVSS
VL: QSVLTQSPSVSAAPGQKVTISCSGSDSNIGDYFVCWYQHLPGKPPQLLIYENNKRPSGIPDRFSGSKSGTSATLGITGIQTGDEADYYCATWDGSLSAWVFGGGTKLTVL
For the molecule B8, the results for the “ELISA virus binding (OD450)” value in test [2] and in test [3] were 3.35 OD450 and 0.07 OD450, respectively.

B9: TCN-553 (5261_C18) (antibody, V domains shown)
VH: QVQVVQSGTEVKKPGSSVKVSCQTSGGRFMSYAITWVRQAPGQGLEWMGGIVPVFGTANYAQKFQGRVTITTDDSTRTAYMELSSLRSEDTAVYYCGFRYGSGYGFDSWGQGTLVTVSS
VL: EIVLTQSPGTLSLSPGERATLSCRASQSVSSSYLAWYQKKPGQAPRLLIYGASTRATGIPDRFTGSGSGTDFTLSISRLEPEDFAVYYCQHFGTSVFTFGGGTKVEIK
For the molecule B9, the “ELISA: Virus Binding (OD450)” value in test [5] worked out at 0.16 OD450.

B10: TCN-553 (5261_C18) (antibody, V domains shown)
VH: B9 VH
VL: B9 VL
Regarding B10, the “ELISA virus binding (OD450)” value in test [2] was found to be 3.6 OD450; in test [3] it was 0.07 OD450.

B11: TCN-533 (5256_A17a) (antibody, V domains shown)
VH: QVQLVQSGADVKKPGSSVTVSCKASGGSFSNYGINWVRQAPGQGLEWMGGIIPLINAPNYAPKFQGRVTITADMFSNIVSLQLTSLRTDDTAVYYCARRKMTTAIDYWGQGTLVTVSS
VL: QPVLTQPPSASASLGASVTLTCTLSSAYSNYKVDWYQQRPGKGPRFVMRVGTGGIVGSKGDGIPDRFSVLGSGLNRYLTIKNIQEEDESDYHCGADHGSGSNFVSPYVFGGGTKLTVL
Consider B11, for which the “ELISA: Virus Binding (OD450)” value in test [5] turned out to be 0.16 OD450.

B12: TCN-550 (5096_F06) (antibody, V domains shown)
VH: QVQLQESGPGLVKPSETLSLTCTVSGASINSHYWSWIRQPPGKGLEWIGYVYYSGSTTYNPSLKSRVTLSVDTSKNQFSLNLSSVTAADTAFYYCARHPYDVLTGSGDWFDPWGQGTLVTVSS
VL: SYVLTQAPSVSVAPGQTARITCGGNAIGSKKVHWYQHKAGQAPVLVVYDDTDRPSGIPERFSGSNSWSTATLTINRVEAGDEADYYCQVWDFTIDHVVFGGGTKLTVL
For the molecule B12, the “ELISA virus binding (OD450)” value is 0.06 OD450 in test [2] and 3.65 OD450 in test [3].

B13: TCN-537 (3194_D21) (antibody, V domains shown)
VH: QVQLQQWGSGLLKPSETLSLTCAVYGGSFRDDYWTWIRQPPGKGLEWIGEINHSGRTNYNPSLKSRVTISVDTSLKQFSLKVISVTAADTAVYYCARGTSHVSRYFDWLPPTNWFDPWGQGTQVTVSS
VL: DIVLTQSPGTLSLSPGERATLSCRASQSVSSSYLAWYQQKPGQAPRLVMYGAATRATGIPDRFSGSGSGPDFTLTISRLEPEDFAMYYCQQYGNSPITFGQGTRLEIK
With B13, the entries for the “ELISA virus binding (OD450)” value in test [4] and in test [1] were 3.48 OD450 and 0.11 OD450, respectively.

B14: TCN-536 (5095_N01) (antibody, V domains shown)
VH: QVQLQQWGAGLLKPSETLSLTCAVYGGSFSVSGYYWSWIRQPPGRGLEWIGEISHGGSTNYNPSLKSRVTISVDTTKNQFSLRLSSVTAADTAVYYCARGTDPDTEVYCRVGNCAAFDYWGQGSLVTVSS
VL: EIILAQSPGTLSLSPGERATLSCRASQFVSTRSLAWYQQRPGQAPRLLIYGASSRATGIPDRFSGSGSGTDFTLTISRLEPEDFAVYYCQHYGYSPRYAFGQGSKVEIK
B14: in test [5], the “ELISA: Virus Binding (OD450)” value was 3.6 OD450.

B15: TCN-552 (5249_I23) (antibody, V domains shown)
VH: QVQVVQSGAEVKKPGSSVRVSCQASGGTFMNYAIIWVRRAPGQGLEWMGGIIPVFPTPNYAQMFQGRVTISTDESRSTSFLELTNLRYEDTAVYYCARRIYHGGNSGFDFWGQGTLVTVSS
VL: EIVLTQSPATLSLSPGERATLSCRASQSVGNYLAWYQQKPGQAPRLLIYDSSNRAPGIPARFSGSGSGTDFTLTISSLAPEDFAVYYCQQRSKWPPMYSFGHGTKLEIK
Consider B15, for which, in test [5], the “ELISA: Virus Binding (OD450)” value turned out to be 0.12 OD450.

B16: TCN-552 (5249_I23) (antibody, V domains shown)
VH: B15 VH
VL: B15 VL
B16: the figures for the “ELISA virus binding (OD450)” value in test [2] and in test [3] were 3.57 OD450 and 0.06 OD450, respectively.

B17: TCN-543 (5081_G23) (antibody, V domains shown)
VH: QVHLVQSGAEVRKPGDSVKVSCKTSGYTFSTYPVAWVRQVPGQGLEWMGWISTYNGNTNFAQNFQGRVTLTTDTTTNTAYMEVRSLKFDDTAVYYCARVEGSYRDFWNNQNRFDPWGQGTLVTVSS
VL: SYVLTQPPSVSVAPGQTARISCGGSNIGGKSVHWYQQKPGQAPVLVVYDDSGRPSGIPERFSGSNSGDTATLTISRVEAGDEADYFCQVWDNFGGVFGTGTKVTVL
Turning to B17, the “ELISA virus binding (OD450)” value in test [4] amounted to 3.64 OD450; in test [1], 2.23 OD450.

B18: TCN-563 (5237_B21) (antibody, V domains shown)
VH: QVQLAQSGAEVKRPGSSVKVSCTASGGIFRKNAISWVRQAPGQGLEWMGGIIAVFNTANYAQKFQGRVKITADESGNTAYMELSSLRSDDTAVYYCASHPKYFYGSGSYPDFWGQGTLVTVSS
VL: QSALTQPRSVSGSPGQSVTISCTGSSSDVGASNSVSWYQQHPGKAPKLVIYDVTERPSGVPHRFSGSKSGNTASLTVSGLQPEDEADYFCCAYGGKYLVVFGGGTKVTVL
For B18, the “ELISA: Virus Binding (OD450)” value in test [5] turned out to be 0.12 OD450.

B19: TCN-554 (5277_M05) (antibody, V domains shown)
VH: QVQLVQSGADLKKPGASVKVSCKASGYTFTDYYIHWVRQAPGQGLEWMGWINPESGDTKYAQKFQGRVTMTRDTSITTAYMELGRLRSDDTAVYYCARDVSTTWSWFAPWGQGTLVTVSS
VL: DIVMTQSPDSLAVSLGERATINCRSSQSIFHNSNNENYLAWYQQKPGQPPKLLIYWASTRESGVPDRFSGSGSGTDFTLTISSLQAEDVAVYFCQQYYNAPLTFGGGTKVEIK
Turning to B19, the “ELISA virus binding (OD450)” value in test [2] stood at 0.06 OD450; in test [3], 1.09 OD450.
